The subject of this data set is WT (W303) yeast. The conditions noted are these: 200 μM, 4 h incubation.

As to `CC/C=C\C/C=C\C/C=C\CCCCCCCC(=O)O` [linolenic acid, cis,cis,cis-9,12,15-Octadecatrienoic acid, reference compound], the “incorporation of fatty acid by yeast” value is recorded as “avidly incorporate”.
As for `[2H]C([2H])(/C=C\CC)/C=C\C([2H])([2H])/C=C\CCCCCCCC(=O)O` [D4-ALA, 11,11,14,14-Tetradeutero-cis,cis,cis-9,12,15-Octadecatrienoic acid], the “incorporation of fatty acid by yeast” value is on record as “avidly incorporate”.

The values are drawn from patent publication US11285125B2, “Oxidative retinal diseases” (priority 2011, dated 2022).
